{"source": "patent US20110158985A1", "about": "“Methods of preventing and treating rsv infections and related conditions” (published 2011)", "note": "“And” between values parts separate entries of the source, which are not always exact repeats. Identical values can stand only once.", "data": [{"molecular_target": "F protein of RSV (Long strain) (RSV (Long strain), UniProt P12568 26-574)", "assay": "cell-based or functional assay", "values": [{"binder": "DG (aka D95/G93) Fab (Fab, V domains shown) VH: QVTLRESGPALVKPTQTLTLTCTFSGFSLSTAGMSVGWIRQPPGKALEWLADIWWDDKKDYNPSLKSRLTISKDTSKNQVVLKVTNMDPADTATYYCARDMITNFYFDVWGQGTTVTVSS VL: DIQMTQSPSTLSASVGDRVTITCSASSSVGYMHWYQQKPGKAPKLLIYDTFKLASGVPSRFSGSGSGTEFTLTISSLQPDDFATYYCFQGSGYPFTFGGGTKVEIK", "Microneutralization IC50, Fab": "0.126 µg/ml and 2.52 nM"}, {"binder": "A1h5 Fab (Fab, V domains shown) VH: QVTLRESGPALVKPTQTLTLTCTFSGFSLSTAGMSVGWIRQPPGKALEWLADIWWDGKKHYNPSLKDRLTISKDTSKNQVVLKVTNMDPADTATYYCARDMIFNWYFDVWGQGTTVTVSS VL: DIQMTQSPSTLSASVGDRVTITCSLSSSVGYMHWYQQKPGKAPKLLIYDTFFHRSGVPSRFSGSGSGTEFTLTISSLQPDDFATYYCFQGSGYPFTFGGGTKVEIK", "Microneutralization IC50, Fab": "0.194 µg/ml and 3.88 nM"}, {"binder": "P12f4 Fab (Fab, V domains shown) VH: QVTLRESGPALVKPTQTLTLTCTFSGFSLSTPGMSVGWIRQPPGKALEWLADIWWDGKKHYNPSLKDRLTISKDTSKNQVVLKVTNMDPADTATYYCARDMIFNFYFDVWGQGTTVTVSS VL: DIQMTQSPSTLSASVGDRVTITCSLSSRVGYMHWYQQKPGKAPKLLIYDTRGLPSGVPSRFSGSGSGTEFTLTISSLQPDDFATYYCFQGSGYPFTFGGGTKVEIK", "Microneutralization IC50, Fab": "0.93 nM"}]}]}
